Measured data: PubChem BioAssay AID624099 (ICCB-Longwood, 2012)

Assay: 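Knock-downs relieving repression by E2 of an HPV18 LCR luciferase reporter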 (primary screen)
Cells: human C33A cervical carcinoma cells (HPV-negative) stably expressing BPV1 E2 and an HPV18 LCR luciferase reporter
Reagent: siRNA pool against human genes, 40 nM
Duration: 72 h
Measurement: 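HPV18 LCR reporter light per well, converted to plate-wise z-scores that exclude control wells, and averaged over triplicate plates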
Direction: mean z-score and z-score: higher = stronger reporter signal, weaker E2 silencing
Call rule: 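Hit if mean z-score reaches 2 and two or more of three replicate z-scores also reach 2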
Shown is an unselected part of about 21,000 reagents tested. 497 of all reagents (2.4%) were called active. 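Higher z means weaker E2 silencing; only reporter increases were scored, and knock-downs that hurt cell survival may mask genuine repressor factors.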

no.	target gene	mean z-score	z-score, replicate A	z-score, replicate B	z-score, replicate C	call
1	SPRYD7 (SPRY domain containing 7)	-0.47	-0.73	-0.31	-0.36	inactive
2	EP400 (E1A binding protein p400)	5.34	5.36	4.74	5.92	active
3	HAMP (hepcidin antimicrobial peptide)	0.04	0.09	0.28	-0.26	inactive
4	BRAF (B-Raf proto-oncogene, serine/threonine kinase)	-0.78	-0.72	-0.53	-1.08	inactive
5	GORASP2 (golgi reassembly stacking protein 2)	-0.42	-0.3	-0.54	-0.43	inactive
6	C2orf69 (chromosome 2 open reading frame 69)	0.25	0.67	-0.18		inactive
7	ASGR2 (asialoglycoprotein receptor 2)	0.78	0.99	0.78	0.58	inactive
8	CYTOR (cytoskeleton regulator RNA)	0.43	0.44	0.27	0.59	inactive
9	ZC3H6 (zinc finger CCCH-type containing 6)	-0.07	0.06	-0.08	-0.18	inactive
10	CYP11A1 (cytochrome P450 family 11 subfamily A member 1)	0.86	1	0.89	0.68	inactive
11	TMT1A (thiol methyltransferase 1A)	0.22	0.11	0.48	0.08	inactive
12	YEATS2 (YEATS domain containing 2)	0.62	0.36	0.89	0.62	inactive
13	LINC02393 (long independently transcribed non-coding RNA 2393)	0.65	0.93	0.74	0.29	inactive
14	POTEB3 (POTE ankyrin domain family member B3)	0.49	0.27	0.35	0.83	inactive
15	RIOK2 (RIO kinase 2)	-0.01	-0.25	0.19	0.02	inactive
16	SLC41A1	-1.36	-1.12	-1.2	-1.76	inactive
17	UBL4A (ubiquitin like 4A)	0.17	0.33	-0.16	0.34	inactive
18	ACE (angiotensin I converting enzyme)	-0.07	0.16	-0.3	-0.07	inactive
19	KLF3-AS1 (KLF3 antisense RNA 1)	-0.29	-0.13	-0.46	-0.27	inactive
20	MRPL22 (mitochondrial ribosomal protein L22)	-0.48	-0.42	-0.48	-0.53	inactive
21	ZNF319 (zinc finger protein 319)	-0.4	0	-0.41	-0.77	inactive
22	LOC390613 (retired record)	0.63	0.73	0.24	0.92	inactive
23	VPS54 (VPS54 subunit of GARP complex)	-0.9	-0.55	-1.33	-0.81	inactive
24	PPIL4 (peptidylprolyl isomerase like 4)	-0.88	-0.94	-0.82	-0.88	inactive
25	PHF20 (PHD finger protein 20)	1.1	0.71	0.86	1.74	inactive
26	CAPZA2 (capping actin protein of muscle Z-line subunit alpha 2)	0.63	0.62	0.7	0.57	inactive
27	LOC388282	-0.2	-0.34	-0.26	-0.01	inactive
28	BROX (BRO1 domain and CAAX motif containing)	1.42	1.67	1.17	1.42	inactive
29	TM2D2 (TM2 domain containing 2)	0.96	1.17	0.72	1	inactive
30	CALR (calreticulin)	1.34	1.47	1.41	1.13	inactive
31	LOC401234 (retired record)	-0.16	-0.18	-0.35	0.04	inactive
32	LOC401169 (retired record)	2.8	2.61	2.26	3.52	active
33	NTM (neurotrimin)	1.6	1.85	1.19	1.76	inactive
34	AAAS (aladin WD repeat nucleoporin)	1.2	1.23	1.09	1.27	inactive
35	RNF19B (ring finger protein 19B)	1.25	1.22	1.07	1.45	inactive
36	EFCAB13 (EF-hand calcium binding domain 13)	0.16	0.26	-0.08	0.28	inactive
37	PCDHGA6 (protocadherin gamma subfamily A, 6)	-1.31	-1.68	-1.31	-0.93	inactive
38	ZFP30 (ZFP30 zinc finger protein)	-0.22	-0.5	-0.04	-0.11	inactive
39	POSTN (periostin)	-0.05	-0.03	-0.41	0.27	inactive
40	RPL38 (ribosomal protein L38)	-2.2	-2.16	-2.25	-2.2	inactive
41	PAIP2 (poly(A) binding protein interacting protein 2)	-0.58	-0.22	-0.91	-0.6	inactive
42	ECHDC3 (enoyl-CoA hydratase domain containing 3)	2.52	2.61	2.54	2.42	active
43	ZNF365 (zinc finger protein 365)	0.42	0.51	0.18	0.57	inactive
44	RILP (Rab interacting lysosomal protein)	-0.26	-0.11	-0.04	-0.64	inactive
45	LOC387632 (retired record)	-0.32	-0.06	-0.6	-0.3	inactive
46	KLHDC4 (kelch domain containing 4)	-0.1	0.02	-0.17	-0.15	inactive
47	HERC4 (HECT and RLD domain containing E3 ubiquitin protein ligase 4)	0.93	0.88	0.92	0.99	inactive
48	USP10 (ubiquitin specific peptidase 10)	0.6	0.47	0.6	0.72	inactive
49	CD276 (CD276 molecule)	1.19	1.36	1.44	0.77	inactive
50	ALAS2 (5'-aminolevulinate synthase 2)	-1.18	-0.74	-1.46	-1.32	inactive
51	NAGS (N-acetylglutamate synthase)	0.03	-0.16	0.13	0.12	inactive
52	PDRG1 (p53 and DNA damage regulated 1)	-0.1	0.28	-0.25	-0.34	inactive
53	CRB2 (crumbs cell polarity complex component 2)	-0.33	-0.5	-0.32	-0.15	inactive
54	RPS11 (ribosomal protein S11)	-1.83	-1.68	-1.98	-1.82	inactive
55	FERMT1 (FERM domain containing kindlin 1)	0.1	0.62	0.03	-0.33	inactive
56	GUCA1A (guanylate cyclase activator 1A)	0.62	0.74	0.52	0.6	inactive
57	CHRNA6 (cholinergic receptor nicotinic alpha 6 subunit)	0.82	0.75	1.03	0.68	inactive

Reprinted from the listing, 8 entries:
no.	target gene	mean z-score	z-score, replicate A	z-score, replicate B	z-score, replicate C	call
11	TMT1A (thiol methyltransferase 1A)	0.22	0.11	0.48	0.08	inactive
12	YEATS2 (YEATS domain containing 2)	0.62	0.36	0.89	0.62	inactive
13	LINC02393 (long independently transcribed non-coding RNA 2393)	0.65	0.93	0.74	0.29	inactive
14	POTEB3 (POTE ankyrin domain family member B3)	0.49	0.27	0.35	0.83	inactive
15	RIOK2 (RIO kinase 2)	-0.01	-0.25	0.19	0.02	inactive
16	SLC41A1	-1.36	-1.12	-1.2	-1.76	inactive
17	UBL4A (ubiquitin like 4A)	0.17	0.33	-0.16	0.34	inactive
18	ACE (angiotensin I converting enzyme)	-0.07	0.16	-0.3	-0.07	inactive
